## Potato spindle tuber viroid, stem 15: variant abundance in plants

The measurements come from Wu et al. 2024 (doi:10.1371/journal.ppat.1012142).

The pool varies stem 15 of the PSTVd intermediate strain in the pattern CUGGAGCGAUNGNNUNNG; wild type is CUGGAGCGAUCGCUUCGG (upper and lower strand joined, each 5' to 3', the first 9 letters being the upper strand).

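A pool of all variants was put on leaves of three Nicotiana benthamiana plants. Progeny were sequenced from the inoculated region (day 5), the margin of the inoculated leaf (day 10) and systemic leaves (day 12).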

Values are reads per thousand in the sample; higher means more abundant, 0 means not found.
Each value is the mean of three plants.
"Pool" is the share in the plasmid pool used as inoculum, on the same scale.
The inoculated region was read from the minus strand, the other sites from the plus strand.
IR is the inoculated region, LM the leaf margin, Sys the systemic leaves.
With 36,693-63,082 reads a sample, very low values are single reads.

For AUGGAGCGAUAGGUUCGG (pool 0.0162) the result was IR 0; LM 0; Sys 0. CUGGAGCGAUGGAAUAGG (pool 0.840) read IR 0.291; LM 0.0144; Sys 0. For CUGGAGCGAUGGCCUGUG (pool 0.873) the result was IR 0.254; LM 0.0282; Sys 0. CUGGAGCGAUAGCGUUCG (pool 0.954) read IR 0.265; LM 0.0541; Sys 0. For CUGGAGCGAUGGUGUUAG (pool 0.937) the result was IR 1.65; LM 0.603; Sys 0.337. For CUGGAGCGAUAGCAUGGG (pool 0.986) the result was IR 0.268; LM 0.0372; Sys 0. CUGGAGCGAUAGGCUUUG (pool 1.70) gave IR 1.17; LM 0.0244; Sys 0.00664.

With CUGGAGCGAUCGUAUACG (pool 0.840) the assay gave IR 0.291; LM 0.0312; Sys 0. With CUGGAGCGAUUGUUUUUG (pool 1.79) the assay gave IR 4.07; LM 1.29; Sys 1.18. For CUGGAGCGAUUGGUUGAG (pool 0.937) the result was IR 0.309; LM 0.0160; Sys 0. CUGGAGCGAUUGGAUACG (pool 0.905) read IR 0.307; LM 0.0207; Sys 0. CUGGAGCGAUUGCGUCGG (pool 0.824) gave IR 0.261; LM 0.00689; Sys 0. CUCGAGCGAUGGUUUACG (pool 0.0162) read IR 0; LM 0; Sys 0. For CUGGAGCGAUGGUUUGGG (pool 0.840) the result was IR 0.315; LM 0.0334; Sys 0.

For CUGGAGCGAUUGCAUAGG (pool 0.905) the result was IR 0.246; LM 0.0631; Sys 0. For CUGGAGCGAUCGCCUCGG (pool 1.03) the result was IR 20.3; LM 16.6; Sys 12.0. With CUGGAGCGAUUGGUUUGG (pool 1.84) the assay gave IR 1.68; LM 0.0456; Sys 0.0132. CUGGAGCGAUGGUGUUUG (pool 0.905) read IR 1.05; LM 0.0754; Sys 0. For CUGGAGCGAUGGGGUAAG (pool 0.711) the result was IR 0.313; LM 0.0488; Sys 0. With CUGGAGCGAUAGCCUCCG (pool 0.727) the assay gave IR 0.302; LM 0.0144; Sys 0. CUGGAGCGAUCGCGUGGG (pool 0.857) read IR 0.325; LM 0.0372; Sys 0.

With CUGGAGCGAUGGGGUCGG (pool 0.824) the assay gave IR 0.288; LM 0.0547; Sys 0. For CUGGAGCGAUGGCUUAUG (pool 1.07) the result was IR 0.256; LM 0.0312; Sys 0. CUGGAGCGAUAGGUUAAG (pool 1.16) read IR 0.341; LM 0.0839; Sys 0. CUGGAGCGAUUGGAUUUG (pool 0.727) gave IR 0.221; LM 0.0579; Sys 0. For CUGGAGCGAUCGAUUAGG (pool 0.857) the result was IR 0.318; LM 0.0282; Sys 0. CUGGAGCGAUUGAUUCUG (pool 0.824) gave IR 0.340; LM 0.0298; Sys 0. For CUGGAGCGAUUGCUUUGG (pool 0.937) the result was IR 0.251; LM 0.00689; Sys 0.

For CUGGAGCGAUCGGUUGGG (pool 1.66) the result was IR 0.804; LM 0.109; Sys 0.00739. CUGGAGCGAUAGGUUAUG (pool 0.889) read IR 0.238; LM 0.0397; Sys 0. For CUGGAGCGAUUGUAUUUG (pool 1.23) the result was IR 1.85; LM 0.642; Sys 0.505.

Excerpt, the final 2 entries:

sequence,pool,IR,LM,Sys
CUGGAGCGAUAGGUUAUG,0.889,0.238,0.0397,0
CUGGAGCGAUUGUAUUUG,1.23,1.85,0.642,0.505

For reference, wild type rose from 10.2 per thousand in the pool to 285, 367, 312 (inoculated region), 785, 865, 782 (leaf margin) and 854, 898, 915 (systemic leaves).
Sequences that differ at fixed positions probably stem from PCR or sequencing errors, and defective variants can be carried along by functional ones.